System: CCR5-tropic HIV
Test: Randomized controlled study of atazanavir/ritonavir QD with maraviroc or Truvada in treatment-naïve patients, 24 weeks
Type: in vivo, human
Settings: number per arm (60 maraviroc, 61 Truvada)
Text: To ascertain whether a once daily, nucleoside-sparing regimen using a CCR5 antagonist could be safely and efficaciously administered to HIV-positive patients infected with CCR5-tropic HIV, a randomized, controlled study is being conducted.

Substance: N-{(1S)-3-[3-(3-isopropyl-5-methyl-4H-1,2,4-triazol-4-yl)-exo-8-azabicyclo[3.2.1]oct-8-yl]-1-phenylpropyl}-4, 4-difluorocyclohexanecarboxamide [maraviroc]
- discontinuations: 4

Source: patent US20130023496A1, “Combination Therapy Comprising A CCR5 Antagonist, A HIV-1 Protease Inhibtior and a Pharmacokinetic Enhancer” (priority 2010, published 2013)
